A mixed list of measured activities; the numbers were collected in NIAID ChemDB.

Shared fields: whole-cell or culture tests; agent: Mycobacterium tuberculosis

Rows are shuffled and stem from different studies. Blank or dashed fields: not listed here. Inhibition is in % at the dose shown (toxicity tests: loss of growth or viability). MIC50, MIC90 and the like: level of inhibition, or share of isolates inhibited. MIC bound comes from a single tested concentration. ECn is the concentration giving n% inhibition of infection, replication or growth.

structure	strain	cell line	read by	conditions	endpoint	tested at	result
NC(=O)c1cnccn1	Isolate 9155 monodrug-resistant				MIC		>300 µg/mL
O=c1oc2ccccc2cc1-c1cn2ccc(Br)cc2n1	H37Rv		BACTEC		MIC		>6.25 µg/mL
O=[N+]([O-])c1cn2c(n1)OC[C@@H](OCc1ccc(-c3ccc(Oc4ccc(C(F)(F)F)cc4)cc3)cc1)C2			low oxygen		MIC90		4.7 µM
CC(O)CNC1=CC(=O)C(=O)c2ccccc21	H37Rv		resazurin		inhibition	6.25 µg/mL	42%
O=[N+]([O-])c1cn2c(n1)OC[C@@H](OCc1ccnc(N3CCC(Oc4ccc(C(F)(F)F)nc4)CC3)c1)C2			resazurin		MIC90		0.27 µM
Cc1nnc(Sc2nc(C#N)c(C#N)nc2Sc2nnc(C)s2)s1	H37Rv		resazurin		MIC bound		>6.25 µg/mL
CC1(C)CC(N=c2cc3n(-c4ccc(Cl)cc4Cl)c4ccccc4nc-3cc2Nc2ccc(Cl)cc2Cl)CC(C)(C)N1	H37Rv	Macrophages		inside macrophages	MIC		0.03 µg/mL
NC(=O)c1cncc(-n2ccnc2)n1	Ethionamide-resistant				MIC		1000 µg/mL
C/C=C/C(=O)NCC(C(C)C)/[N+]([O-])=N/O	H37Rv		BACTEC		MIC		≥12.5 µg/mL
Cc1ccc(N=Nc2c(O)c3cccc(Cl)c3[nH]c2=O)cc1	H37Rv		resazurin		MIC		>6.25 µg/mL
O=S(=O)(Nc1nccs1)c1ccc(N=Cc2cn(Cc3ccccc3)c3ccccc23)cc1	H37Rv		resazurin		MIC		1.56 µg/mL
N/C(=N\N=C\c1ccc(Cl)cc1)c1ccncc1	H37Rv				MIC		32 µg/mL
O=C1c2cc(F)ccc2-n2c1nc1ccc(F)cc1c2=O	H37Rv				MIC		1 µg/mL
CCOC(=O)c1nc(C(C)C)[nH]c1C(C)C	H37Rv				inhibition	6.25 µg/mL	5%
CN1CCN(c2cccc3nc4n(c(=O)c23)-c2ccc(F)cc2C4=O)CC1	MDR 10038				MIC		5 µg/mL
N/C(COc1ccc(Cl)cc1)=N/NC(=O)c1ccncc1	16 isolates				MIC90		12.5 µg/mL
O=[N+]([O-])c1cn2c(n1)OC[C@@H](OCc1ccc(C#Cc3ccc(C(F)(F)F)nc3)nc1)C2			resazurin		MIC90		0.7 µM
CO[C@H]1/C=C/O[C@@]2(C)Oc3c(C)c(O)c4c(O)c(c(/C=N/N5CCN(C)CC5)c(O)c4c3C2=O)NC(=O)/C(C)=C\C=C\[C@H](C)[C@H](O)[C@@H](C)[C@@H](O)[C@@H](C)[C@H](OC(C)=O)[C@@H]1C	22 strains				MIC50		0.1 µg/mL
N/C(=N\N=C\c1ccc(Cl)c(Cl)c1)c1ccncc1	1342				MIC		>256 µg/mL
O=[N+]([O-])c1cn2c(n1)OC[C@@H](OCc1ccc(CNc3ccc(C(F)(F)F)nc3)cc1)C2			low oxygen		MIC90		4.2 µM
CC(=O)/C=N/NC(=O)C(O)C(O)C(O)C(O)CO	H37Rv		BACTEC		inhibition	12.5 µg/mL	9%
COc1ccc(/C=N/NC(=O)c2cnc(C3C4CC5CC(C4)CC3C5)[nH]2)cc1	H37Rv				MIC		>6.25 µg/mL
Cl.Cl.NOCc1cnccn1	H37Rv		BACTEC		inhibition	12.5 µg/mL	4%
O=c1[nH]c2c(Cl)c(Cl)ccc2c(O)c1N=Nc1cccc([N+](=O)[O-])c1	H37Rv		resazurin		inhibition	6.25 µg/mL	27%
C[C@H]1COc2c(N3CCN(C)CC3)c(F)cc3c(=O)c(C(=O)O)cn1c23	2888-3				MIC		0.5 µg/mL
C#CCN(Cc1ccc2nc(N)[nH]c(=O)c2c1)c1ccc(C(=O)NC(CCC(=O)O)C(=O)O)cc1	H37Rv		BACTEC		MIC bound		>12.5 µg/mL
O=[N+]([O-])c1cn2c(n1)OC[C@@H](OCc1ccc(/C=C/c3ccc(F)cc3)cc1)C2			low oxygen		MIC90		22 µM
N/C(COc1ccc([N+](=O)[O-])cc1)=N/NC(=O)c1ccncc1	ATCC 35822 (isoniazid-resistant)				MIC		50 µg/mL
O=c1[nH]c2ccc(Cl)cc2c(O)c1N=Nc1ccc(Cl)cc1	H37Rv		resazurin		MIC		<6.25 µg/mL
COc1cc(/C=N/N=C(\N)c2ccncc2)cc(OC)c1OC	1342				MIC		>256 µg/mL
Cc1cccc2nc3n(c(=O)c12)-c1ccccc1C3=O	H37Rv				MIC		2 µg/mL
N#Cc1c(C(=O)NN)c2c(-c3ccc4ccccc4c3)n[nH]c(=O)c2[nH]c1=O	H37Rv		BACTEC		inhibition	12.5 µg/mL	37%
CC1(C)CC(N=c2cc3n(-c4cc(Cl)cc(Cl)c4)c4ccccc4nc-3cc2Nc2cc(Cl)cc(Cl)c2)CC(C)(C)N1	H37Rv	Macrophages		inside macrophages	MIC		0.03 µg/mL
CO[C@H]1/C=C/O[C@@]2(C)Oc3c(C)c(O)c4c(O)c(c(/C=N/N5CCN(C)CC5)c(O)c4c3C2=O)NC(=O)/C(C)=C\C=C\[C@H](C)[C@H](O)[C@@H](C)[C@@H](O)[C@@H](C)[C@H](OC(C)=O)[C@@H]1C	H37Rv				MIC		0.08 µg/mL
C=C(C)/C=C/[C@]12C[C@H](C)[C@H]3CC[C@](C)(N)[C@@H](CC[C@H]1C)[C@@H]32	H37Rv				MIC		6 µg/mL
CO[C@H]1/C=C/O[C@@]2(C)Oc3c(C)c(O)c4c(O)c(c5c(c4c3C2=O)NC2(CCN(CC(C)C)CC2)N=5)=NC(=O)/C(C)=C\C=C\[C@H](C)[C@H](O)[C@@H](C)[C@@H](O)[C@@H](C)[C@H](OC(C)=O)[C@@H]1C	MDR-1 (MDR)				MIC		>1.6 µg/mL
Cc1cccc(N=Nc2c(O)c3cccc([N+](=O)[O-])c3[nH]c2=O)c1	H37Rv		resazurin		inhibition	6.25 µg/mL	95%
Cc1ccc(OC/C(N)=N\NC(=O)c2ccncc2)cc1	ATCC 35820 (streptomycin-resistant)				MIC		6.25 µg/mL
N#Cc1ccc(/C=N/N=C(\N)c2ccncc2)cc1	1342				MIC		>256 µg/mL
C[C@@H]1C[C@@]2(O[C@@H]2C)C(=O)O[C@@H]2CCN3CC=C(COC(=O)[C@]1(C)O)[C@H]23	H37Rv		BACTEC		inhibition	12.8 µg/mL	8%
COc1ccccc1N=Nc1c(O)c2ccc([N+](=O)[O-])cc2[nH]c1=O	H37Rv		resazurin		inhibition	6.25 µg/mL	96%
C[C@]1(COc2ccc(N3CCC(Oc4ccc(OC(F)(F)F)cc4)CC3)cc2)Cn2cc([N+](=O)[O-])nc2O1	Aoyama B				MIC		0.024 µg/mL
NC(=O)c1cnccn1	TB206			7 d	EC50		<800 µg/mL
CC1CCCCN1c1cncc(/C(N)=N/O)n1	Isoniazid-resistant				MIC		250 µg/mL
CO[C@H]1/C=C/O[C@@]2(C)Oc3c(C)c(O)c4c(O)c(c(/C=N/N5CCN(C)CC5)c(O)c4c3C2=O)NC(=O)/C(C)=C\C=C\[C@H](C)[C@H](O)[C@@H](C)[C@@H](O)[C@@H](C)[C@H](OC(C)=O)[C@@H]1C	R506				MIC		100 µM
Cc1ccc(C)c(/C=N/N=C(\N)c2ccncc2)c1	1054				MIC		128 µg/mL
CC1=C(c2c(C)cc(O)c3c2C(=O)C(c2c(O)c4c(C)cccc4oc2=O)=C(c2c(O)c4c(C)cccc4oc2=O)C3=O)C(=O)c2c(O)cccc2C1=O	H37Rv (ATCC 27294)				MIC		2.44 µg/mL
COc1cccc2cc(-c3cn4ccc(C)cc4n3)c(=O)oc12	H37Rv		BACTEC		MIC		>6.25 µg/mL
CC1CCCCN1c1cncc(C(N)=S)n1	H37Rv				MIC		250 µg/mL
O=C[C@H](O)[C@@H](O)[C@H](O)[C@H](O)CO	H37Rv		resazurin		MIC bound		>6.25 µg/mL
COc1cc(/C=N/N=C(\N)c2ccncc2)cc(OC)c1	1054				MIC		256 µg/mL
C[C@H](N)C(=O)N[C@@H]1[C@H]2C(=C(O)C[C@@H](O)[C@@H]2O)C(=O)O[C@]1(C)C(Cl)Cl	RMP-R				MIC		1.6 µg/mL
CC1CN(c2cc3c(cc2F)C(=O)c2nc4ccccc4c(=O)n2-3)CCN1	MDR 10038				MIC		5 µg/mL
C=CCOC(=O)N[C@H]1[C@H](O[C@@H](C)[C@H](NC(=O)OCc2ccccc2)C(=O)OC(C)(C)C)O[C@H](COC(C)=O)[C@@H](OC(C)=O)[C@@H]1OC(C)=O	H37Rv		resazurin		inhibition	6.25 µg/mL	-35%
NNC(=O)c1ccncc1	S-3M (susceptible)				MIC		0.025 µg/mL
NC(=O)c1cncc(-n2cncn2)n1	Isoniazid-resistant				MIC		500 µg/mL
CCCCCCC(O)C/C=C/CCCCCCCC(=O)O	H37Rv		BACTEC		MIC bound		>12.5 µg/mL
CN1CCN(c2ccc3c(=O)n4c(nc3c2)C(=O)c2cc(F)ccc2-4)CC1	H37Rv				MIC		1 µg/mL
S=C(S)NCCCNC(=S)S	H37Rv		resazurin		MIC		6.25 µg/mL
O=C1c2cc(F)ccc2-n2c1nc1nccnc1c2=O	MDR 10038				MIC		10 µg/mL
O=C1c2ccccc2C(=O)c2[nH]ncc21	H37Rv		resazurin		inhibition	6.25 µg/mL	6%
O=[N+]([O-])c1cn2c(n1)OC[C@@H](OCc1ccc(CNc3ccc(OC(F)(F)F)cc3)cc1)C2			low oxygen		MIC90		0.73 µM
COc1cccc2cc(-c3cn4ccccc4n3)c(=O)oc12	H37Rv		BACTEC		inhibition	6.25 µg/mL	0%
O=C(N/N=C/c1ccccc1)c1cnc(C2C3CC4CC(C3)CC2C4)[nH]1	H37Rv				MIC		>6.25 µg/mL
O=[N+]([O-])c1cn2c(n1)OC[C@@H](OCc1ccc(C#Cc3ccc(C(F)(F)F)cc3)cn1)C2			low oxygen		MIC90		12 µM
COC1O[C@@H]2COC(c3ccccc3)O[C@H]2[C@@H]2O[C@H]12	H37Rv		BACTEC		MIC bound		>6.25 µg/mL
C[C@H]1COc2c(N3CCN(C)CC3)c(F)cc3c(=O)c(C(=O)O)cn1c23	001-013 (drug-resistant)				MBC		1.5 µg/mL
CCc1ccc(C(=O)N/N=C(\C)[C@]2(O)Cc3c(O)c4c(c(O)c3[C@H](O[C@H]3C[C@H](N)[C@H](O)[C@H](C)O3)C2)C(=O)c2c(OC)cccc2C4=O)cc1	RMP-R				MIC		>12.5 µg/mL
COC(=O)CNC(=O)c1cnc(C(C)(C)C)[nH]1	H37Rv				MIC		>6.25 µg/mL
O=c1[nH]c2c([N+](=O)[O-])cccc2c(O)c1N=Nc1ccc(F)c(Cl)c1	H37Rv		resazurin		MIC		<6.25 µg/mL
COc1ccccc1/C=N/N=C(\N)c1ccncc1	H37Rv				MIC		64 µg/mL
Cc1ccc2c(c1)C1(c3ccc(Cl)cc3)Oc3ccc(C)cc3C(c3ccc(Cl)cc3)(O2)O1	H37Rv		BACTEC		inhibition	12.5 µg/mL	-13%
NNC(=O)c1ccncc1	Isolate 2227				MIC		>4 µg/mL
O=c1oc2c(Cl)cc(Cl)cc2cc1-c1cn2ccccc2n1	H37Rv		BACTEC		MIC		>6.25 µg/mL
Cc1ccc2c(c1)C(=O)c1nc3ccccc3c(=O)n1-2	H37Rv				MIC		5 µg/mL
CN(C)CCCn1ncc(Sc2cc([N+](=O)[O-])ccc2N)c(Cl)c1=O	H37Rv		BACTEC		MIC bound		>12.5 µg/mL
NC(=O)c1cnccn1	ATCC 35828 niacin-positive				MIC		>2048 µg/mL
O=C1OCCOCCOCCOCCOC(=O)C1c1ccccc1	H37Rv		BACTEC		inhibition	12.5 µg/mL	-13%
O=[N+]([O-])c1cn2c(n1)OC[C@@H](OCc1ccc(Oc3ccc(F)cc3)nc1)C2			resazurin		MIC90		0.12 µM
CC1CCCCN1c1cncc(C(N)=O)n1	H37Rv				MIC		500 µg/mL
NNC(=O)CCc1cnc(C2CCCC2)[nH]1	H37Rv				MIC		>6.25 µg/mL